Pooled drug test results. Numbers come from NIAID ChemDB, via PubChem.

Common to all: whole-cell or culture tests; organism: Hepatitis B virus

Two numbers with a dash give a range or band. Conditions beyond the fields shown may differ between rows. Blank or dashed fields: not listed here. ECn is the concentration giving n% inhibition of infection, replication or growth.

SMILES,method,cells,read-out,value
COc1cc(Nc2ncnc3ccc(I)cc23)ccc1N1CCOCC1,replicon,HUH 9B,EC50,1–5 µM
Cc1c2c(c(C(=O)Nc3cccc(Cl)c3)n1C)CCC(C)(C)NC2=O,PCR,HepAD38,EC50,0.05–0.499 µM
Nc1nc(F)c(F)c2ncn([C@@H]3O[C@H](CO)[C@@H](O)[C@H]3O)c12,,,EC50,10 µM
C=C1C(COP(=O)(N[C@@H](C)C(=O)OC)Oc2ccccc2)C(O)C(F)C1n1cnc2c(N)ncnc21,,Huh7,EC50,0.062 µM
Nc1nc(Cl)c(Cl)c2c1ncn2[C@@H]1O[C@H](CO)[C@@H](O)[C@H]1O,,,EC50,>10 µM
COc1ccc(CNC(=O)c2c3n(c(=O)n2-c2ccccc2)CCN(C(=O)c2ccc(Br)c(Cl)c2)C3)c(F)c1,PCR,HepG2.117,EC50,0.1–0.5 µM
CC1=CC[C@]2(C)CC(=O)[C@]3(C)C(=O)C=C(C(C)C)[C@@H]3[C@H]2CC1,,,EC50,>100 µg/mL
Nc1nc(F)cc2c1ncn2[C@H]1O[C@H](CO)[C@@H](O)[C@@H]1O,,,EC50,>10 µM
Cc1c2c(c(C(=O)Nc3cc(F)c(F)c(F)c3)n1C)CCC(C)(C)NC2=O,PCR,HepAD38,EC50,>1 µM
C[C@@H](NC(=O)c1c2n(c(=O)n1-c1ccc(OC3CC3)cc1)C[C@H](C)N(C(=O)c1ccc(Br)c(Cl)c1)C2)c1ccccc1,PCR,HepG2.117,EC50,0.1–0.5 µM
FC(F)(F)c1cc(N2CCOCC2)ccc1Nc1ncnc2ccc(I)cc12,replicon,HUH 9B,EC50,<1 µM
CC(C)Oc1ccc(-n2c(C(=O)NCc3ccc(C(F)F)cc3)c3n(c2=O)CCN(C(=O)c2ccc(Br)c(Cl)c2)C3)cc1,PCR,HepG2.117,EC50,0.1–0.5 µM
CS(=O)(=O)c1ccc(-c2ccc3ncnc(Nc4ccc(N5CCOCC5)cc4)c3c2)cc1,replicon,HUH 9B,EC50,<1 µM
Cc1c2c(c(C(=O)Nc3ccc(F)c(F)c3)n1C)CCC(C)NC2=O,PCR,HepAD38,EC50,0.5–1 µM
O=C(NCc1ccccc1-c1ncccn1)c1c2n(c(=O)n1-c1ccc(OCC(F)(F)F)cc1)CCN(C(=O)c1ccc(Br)c(Cl)c1)C2,PCR,HepG2.117,EC50,<0.1 µM
C/C=C(/C)C(=O)Oc1c(OC)c(OC)cc2c1-c1c(cc3c(c1OC)OCO3)C[C@H](C)[C@@](C)(O)C2,PCR,HepG2.2.15,EC50,12.03 µg/mL
C=C1[C@H](CO)[C@@H](O)C[C@@H]1n1cnc2c(=O)[nH]c(N)nc21,,2.2.15,EC50,0.0037 µM
O=Cc1ccc(C2(Nc3ccc(N4CCOCC4)cc3)N=CNc3ccccc32)o1,replicon,HUH 9B,EC50,<1 µM
O=C(NCc1ccccc1-n1cccn1)c1c2n(c(=O)n1-c1ccc(OCC(F)(F)F)cc1)CCN(C(=O)c1ccc(Br)c(Cl)c1)C2,PCR,HepG2.117,EC50,<0.1 µM
Nc1ncc(Cl)c2c1ncn2[C@@H]1O[C@H](CO)[C@@H](O)[C@H]1O,,,EC50,>10 µM
Nc1nc(=O)c2ncn([C@@H]3O[C@H](CO)[C@@H](O)[C@H]3O)c2c(=O)[nH]1,antigen,2.2.15,EC50,<10 µM
C=C1[C@H](CO)[C@@H](O)C[C@@H]1n1cnc2c(=O)[nH]c(N)nc21,,Huh7,EC90,0.033 µM
Cc1cc(NC(=O)c2c3c(C)c(C)[nH]c(=O)c3c(C)n2C)ccc1F,PCR,HepAD38,EC50,0.5–1 µM
COc1ccc(-n2c(C(=O)N[C@@H](C)c3ccccc3)c3n(c2=O)CCN(C(=O)c2ccc(Br)c(Cl)c2)C3)cc1,PCR,HepG2.117,EC50,>0.5 µM
C/C=C(/C)C(=O)O[C@@H]1c2cc(OC)c(OC)c(OC)c2-c2c(cc3c(c2OC)OCO3)C[C@H](C)[C@@]1(C)O,ELISA / antigen,HepG2.2.15,EC50,65.73 µg/mL
Cc1cc(N2CCOCC2)ccc1Nc1ncnc2ccc(-c3cccs3)cc12,replicon,HUH 9B,EC50,<1 µM
C=C1c2c(c(C)n(C)c2C(=O)Nc2ccc(F)c(C)c2)C(=O)NC1C,PCR,HepAD38,EC50,0.5–1 µM
Nc1[nH]c(=O)c2ncn([C@@H]3O[C@H](CO)[C@@H](O)[C@H]3O)c2c1Cl,,,EC50,>10 µM
C/C=C(/C)C(=O)Oc1c(OC)c(OC)cc2c1-c1c(cc(OC)c(OC)c1OC)C[C@H](C)[C@H](C)C2,ELISA / antigen,HepG2.2.15,EC50,11.21 µg/mL
CC(C)Oc1ccc(-n2c(C(=O)N[C@H](C)c3ccccc3)c3n(c2=O)CCN(C(=O)c2ccc(Br)c(Cl)c2)C3)cc1,PCR,HepG2.117,EC50,0.1–0.5 µM
OCc1ccc(-c2ccc3ncnc(Nc4ccc(N5CCOCC5)cc4)c3c2)o1,replicon,HUH 9B,EC50,<1 µM
CC(C)Oc1ccc(-n2c(-c3nnc(Cc4ccccc4)o3)c3n(c2=O)CCN(C(=O)c2ccc(Br)c(Cl)c2)C3)cc1,PCR,HepG2.117,EC50,>5 µM
Cc1c2c(c(C(=O)Nc3ccnc(F)c3)n1C)CCC(C)(C)NC2=O,PCR,HepAD38,EC50,0.05–0.499 µM

For reference, 2 entries again:

SMILES | method | cells | read-out | value
Cc1c2c(c(C(=O)Nc3cccc(Cl)c3)n1C)CCC(C)(C)NC2=O | PCR | HepAD38 | EC50 | 0.05–0.499 µM
Nc1nc(=O)c2ncn([C@@H]3O[C@H](CO)[C@@H](O)[C@H]3O)c2c(=O)[nH]1 | antigen | 2.2.15 | EC50 | <10 µM